For one compound, MNTC results are on record in publication PMC5011961, “In vitro antimicrobial activities of animal-used quinoxaline 1,4-di-N-oxides against mycobacteria, mycoplasma and fungi” (BMC Veterinary Research, 2016).

The series deals with PK-15 cells. Nature of the series: Cytotoxicity assay (MTT). To be noted: PK-15, maximum non-cytotoxic concentration (90 % cell viability).

`NC(=O)c1ncn([C@@H]2O[C@H](CO)[C@@H](O)[C@H]2O)n1` [Ribavirin, ribavirin]: the MNTC was 2.0 µg/mL.
